Pooled drug test results. Numbers come from NIAID ChemDB, via PubChem.

Common to all: whole-cell or culture tests; agent: HIV-1

Neighbouring rows are from separate reports.

structure,changes,cells,read-out,method,strain,value
COc1ccc(S(=O)(=O)N(CC(C)C)C[C@@H](O)CCN(CCc2ccccc2)C(=O)O[C@H]2CCOC2)cc1,,CEM,EC50,p24,IIIB,<1 µM
COc1cc(-c2ccc(N=Nc3ccc4c(S(=O)(=O)O)cc(S(=O)(=O)O)c(N)c4c3O)c(OC)c2)ccc1N=Nc1ccc2c(S(=O)(=O)O)cc(S(=O)(=O)O)c(N)c2c1O,,CEM + CEM-SS,EC50,cytopathic effect / XTT,TP1,0.6 µM
COCCNC(=O)c1c(COC)nc(Nc2ccc(C#N)cc2)nc1Oc1c(C)cc(/C=C/C#N)cc1C,,MT4 CMV-EGFP,EC50,,IIIB,0.00288 µM
Cc1cc(S(N)(=O)=O)ccc1NC(=O)COc1ccc(Cl)cc1C(=O)c1cc(F)cc(C(F)(F)F)c1,,MT-4,EC50,cytopathic effect / propidium iodide,IIIB,<0.01 µM
Cc1nc2ccc(Cl)cc2c(-c2ccc(O)cc2)c1C(OC(C)C)C(=O)O,,C8166,EC50,luciferase / reporter gene,,<20 µM
O=C(C(=O)N1CCN(C(=O)c2ccc(-c3ccccn3)cc2S)CC1)c1c[nH]c2cccc(Cl)c12,,HeLa + HELA CD4+/CCR5,EC50,luciferase,,<10 µM
CCCc1cc(=O)oc2c3c(c4c(c12)OC(C)(C)CC4)O[C@@H](C)[C@H](C)[C@@H]3O,,PBMC,EC50,RT activity,CLADE F,0.1 µM
COc1cnc(-n2cnc(C)n2)c2[nH]cc(C(=O)C(=O)N3CCC(=C(c4ccccc4)c4nnco4)CC3)c12,,HeLa,EC50,luciferase,,<1 µM
CC1CC(C)CN(S(=O)(=O)c2ccccc2[N+](=O)[O-])C1,,HeLa,EC50,GFP / fluorescence,G-3,0.89 µM
COc1ncc(OC)c2c(C(=O)C(=O)N3CCC(=C(c4ccccc4)c4cc(C)cs4)CC3)c[nH]c12,,HeLa,EC50,luciferase,,<1 µM
CC(C)[C@H](NC(=O)OCc1ccccn1)C(=O)N[C@@H](Cc1ccccc1)[C@@H](O)C[C@H](Cc1ccccc1)NC(=O)OCc1cccnc1,,MT-4,EC50,p24,NL4-3,<0.8 µM
O=C(C(=O)N1CCN(C(=O)c2ccccc2)CC1)c1c[nH]c2cccc(Br)c12,,HeLa + HELA CD4+/CCR5,EC50,luciferase,,<10 µM
COc1ccc(S(=O)(=O)N(CC(C)C)C[C@@H](O)C[C@H](Cc2ccccc2)CN2CSCC2C(=O)NC(C)(C)C)cc1,,CEM,EC50,p24,IIIB,<1 µM
CC(C)(C)OC(=O)Nc1cccc(C(=O)N2CCN(C(=O)C(=O)c3c[nH]c4cccc(Cl)c34)CC2)c1,,HeLa + HELA CD4+/CCR5,EC50,luciferase,,<10 µM
CC(C)CN(CC(F)(F)C(=O)[C@H](Cc1ccccc1)NC(=O)O[C@H]1CCOC1)S(=O)(=O)c1ccccc1,,CEM,EC50,p24,IIIB,<1 µM
CCCC(C(=O)O)c1c(C)nc2ccccc2c1-c1ccc(C)cc1,,C8166,EC50,luciferase / reporter gene,,<20 µM
Cc1cc(C#N)cc(C)c1Oc1nc(NC2CCC(NCc3ccccc3)CC2)nc2ccsc12,NNRTI-resistant (RT F227L V106A),MT-4,EC50,MTT,IIIB,1.05 µM
Cc1ccc(-c2c(C(OC(C)C)C(=O)O)c(C)nc3ccc(Cl)cc23)c(C)c1,,C8166,EC50,luciferase / reporter gene,,<20 µM
CC(C)CN(C[C@@H](O)CCN(CC1CCCC1)S(=O)(=O)c1ccc(O)cc1)S(=O)(=O)c1ccc(O)cc1,,CEM,EC50,p24,IIIB,<0.1 µM
O=C1Nc2ccc(F)c(F)c2[C@@](/C=C/C2CC2)(C(F)(F)F)N1,RT-Y188L,,EC90,,,~0.115 µM
COCc1nc(Nc2ccc(C#N)cc2)nc(Nc2c(C)cc(/C=C/C#N)cc2C)c1C(=O)NCCNC(C)=O,,MT4 CMV-EGFP,EC50,,IIIB,0.00562 µM
CCc1cc(C#N)cc(C(=O)c2cc(Cl)ccc2OCC(=O)Nc2ccc(S(N)(=O)=O)cc2C)c1,RT-V108I,HeLa + HELA CD4+,EC50,β-galactosidase,HXB2,<0.01 µM
C=Cc1ccc(-c2c(C(CCC)C(=O)O)c(C)nc3ccc(Cl)cc23)cc1,,C8166,EC50,luciferase / reporter gene,,<20 µM
COCc1nc(Nc2ccc(C#N)cc2)nc(Nc2c(C)cc(/C=C/C#N)cc2C)c1C(=O)NCc1ccncc1,,MT4 CMV-EGFP,EC50,,L1001+K103N,0.0372 µM
COc1ncc(OC)c2c(C(=O)C(=O)N3CCC(=C(c4ccccc4)c4nccs4)CC3)c[nH]c12,,HeLa,EC50,luciferase,,<1 µM
CCCC(C(=O)O)c1c(-c2ccc(Cl)cc2)c2cc(Cl)ccc2n(Cc2ccncc2)c1=O,,C8166,EC50,luciferase / reporter gene,,<20 µM
Cc1cc(/C=C/C#N)cc(C)c1Oc1nc(NC2CCN(Cc3ccccc3C#N)CC2)nc2ccsc12,NNRTI-resistant (RT F227L V106A),MT-4,EC50,MTT,IIIB,0.0378 µM
C=C(C)c1nnc(C(=C2CCN(C(=O)C(=O)c3c[nH]c4c(-n5cnc(C)n5)ncc(OC)c34)CC2)c2ccccc2)o1,,HeLa,EC50,luciferase,,<1 µM
Cc1cc(/C=C/C#N)cc(C)c1Oc1nc(NC2CCN(Cc3cccc(F)c3)CC2)nc2ccsc12,NNRTI-resistant (RT E138K),MT-4,EC50,MTT,IIIB,0.0316 µM
COCc1nc(Nc2ccc(C#N)cc2)nc(Nc2c(C)cc(/C=C/C#N)cc2C)c1C(=O)NCCc1ccccn1,,MT4 CMV-EGFP,EC50,,K103N + Y181C,0.0151 µM
COc1cnc(-n2ccnn2)c2[nH]cc(C(=O)C(=O)N3CCC(=C(c4ccccc4)c4nnc(C)o4)CC3)c12,,HeLa,EC50,luciferase,,<1 µM
CC(C)(C)OC(=O)Nc1ccccc1C(=O)N1CCN(C(=O)C(=O)c2c[nH]c3cccc(Cl)c23)CC1,,HeLa + HELA CD4+/CCR5,EC50,luciferase,,~10 µM
Cc1nc2ccc(Cl)cc2c(-c2ccc(C(C)(F)F)cc2)c1C(OC(C)C)C(=O)O,,C8166,EC50,luciferase / reporter gene,,<20 µM
Cc1ccc(-c2ccc3c(c2)C=C(C(=O)Nc2ccc(C[N+](C)(C)C4CCOCC4)cc2)CCC3)cc1,,PBMC,EC50,p24,COT2 CLADE C,<1 µM
COCc1nc(Nc2ccc(C#N)cc2)nc(Oc2c(C)cc(/C=C(\C)C#N)cc2C)c1C(=O)NCc1ccncc1,,MT4 CMV-EGFP,EC50,,MDR,1.55 µM
O=C(c1ccccc1)N(CCc1ccccc1)C[C@H](O)CN(CC1CCCC1)S(=O)(=O)CC1COCO1,,CEM,EC50,p24,IIIB,<1 µM
Cc1cc(S(N)(=O)=O)ccc1NC(=O)COc1ccc(Cl)cc1C(=O)c1cc(F)cc(F)c1,RT-K103N G190A,HeLa + HELA CD4+,EC50,β-galactosidase,HXB2 (RT-K103N G190A) Recombinant,0.011–0.1 µM
Clc1cc(CN2CCCNCCNCCCNCC2)cc(Cl)n1,,PBMC,EC50,p24,R5 clinical isolate #15,5.7 µM
COCc1nc(Nc2ccc(C#N)cc2)nc(Nc2c(C)cc(/C=C/C#N)cc2C)c1C(=O)NCC1CCCO1,,MT4 CMV-EGFP,EC50,,K103N+Y101C,0.0372 µM
Cc1nc2ccc(Cl)cc2c(-c2cc3ccccc3s2)c1C(OC(C)C)C(=O)O,,C8166,EC50,luciferase / reporter gene,,<20 µM
Cc1cc(C#N)cc(C(=O)c2cc(Cl)ccc2OCC(=O)Nc2ccc(S(N)(=O)=O)nc2C)c1,RT-V106I,HeLa + HELA CD4+,EC50,β-galactosidase,HXB2,<0.01 µM
O=C(C(=O)N1CCN(C(=O)c2ccccc2)CC1)c1c[nH]c2ccc(Br)cc12,,MT-2,EC50,RT activity,BRU,<10 µM
N#Cc1cc(Cl)cc(Oc2c(Br)ccc(CC(=O)Nc3ccc(S(N)(=O)=O)cc3Cl)c2F)c1,V106A/F227C/M230L,MT-4,EC50,,,>0.4 µM
Cc1cc(S(N)(=O)=O)ccc1NC(=O)COc1ccc(Cl)cc1C(=O)c1cccc(C#N)c1,RT-V106I Y181C,HeLa + HELA CD4+,EC50,β-galactosidase,HXB2,0.011–0.1 µM
COc1cnc(-n2cc(C)nn2)c2[nH]cc(C(=O)C(=O)N3CCC(=C(c4ccccc4)c4nnc(C)o4)CC3)c12,,HeLa,EC50,luciferase,,<1 µM
CN1c2ccccc2C2C1C=C(C#N)C(=O)N2c1ccc([N+](=O)[O-])cc1,,HeLa,EC50,GFP / fluorescence,D-92UG046,0.21 µM
Cc1cc(/C=C/C#N)cc(C)c1Oc1nc(NC2CCN(Cc3ccc(Cl)cc3)CC2)nc2ccsc12,,MT-4,EC50,MTT,RES056,0.195 µM
COCCNC(=O)c1c(COC)nc(Nc2ccc(C#N)cc2)nc1Nc1c(C)cc(/C=C(\C)C#N)cc1C,,MT4 CMV-EGFP,EC50,,IIIB,0.00331 µM
Cc1cc(OCCCN2CCOCC2)ccc1NC(=O)COc1ccc(Cl)cc1C(=O)c1cccs1,RT-Y181C,MT-4,EC50,cytopathic effect / propidium iodide,Nevirapine-resistant (RT Y181C),0.011–0.1 µM
CC(C)=CCOc1cc(NC(=S)c2ccoc2C)ccc1Cl,RT-V106I,CEM + CEM-SS,EC50,p24,NL4-3,0.1 µM
Cc1cc(C#N)cc(C)c1Oc1nc(NC2CCC(NCc3cccc(C(F)(F)F)c3)CC2)nc2ccsc12,NNRTI-resistant (RT K103N),MT-4,EC50,MTT,IIIB,>707 µM
O=C1Nc2ccc(Cl)cc2[C@@](/C=C/C2CC2)(C(F)(F)F)N1,RT-G190S,,EC90,,,~0.12 µM
CC(C)CN(C(=O)C(=O)C(=O)N(CC(C)C)S(=O)(=O)c1ccc(O)cc1)S(=O)(=O)c1ccccc1,,CEM,EC90,p24,IIIB,1 µM
CC(C)CN(C[C@@H](O)[C@H](Cc1ccccc1)NC(=O)O[C@H]1CO[C@H]2OCC[C@H]21)S(=O)(=O)c1ccc2c(c1)OCO2,L10F/L24I/M46I/I54V/L63P/A71V/G73S/V82T,MT-4,EC50,p24,NL4-3 (IDV5),0.0037 µM
COc1cnc(-c2cccc(C(=O)O)c2)c2[nH]cc(C(=O)C(=O)N3CCC(=C(C#N)c4ccccc4)CC3)c12,,HeLa,EC50,luciferase,,<1 µM
Cc1cc(S(N)(=O)=O)ccc1NC(=O)COc1ccc(Cl)cc1C(=O)c1cc(F)cc(C(F)(F)F)c1,RT-E138K,HELA MAGI,EC50,luciferase,IIIB,0.003 µM
Cc1cc(OCCCS(N)(=O)=O)ccc1NC(=O)COc1ccc(Cl)cc1C(=O)c1cc(F)cc(C(F)(F)F)c1,RT-K103N V108I,HeLa + HELA CD4+,EC50,β-galactosidase,HXB2,<0.01 µM
Cc1ccc(C(=O)N2CCN(C(=O)C(=O)c3c[nH]c4ccccc34)CC2)cc1,,MT-2,EC50,RT activity,BRU,<10 µM
Cc1cc(C)cc(C(=O)c2cc(Cl)ccc2OCC(=O)Nc2ccc(S(N)(=O)=O)cc2C)c1,RT-V108I,HeLa + HELA CD4+,EC50,β-galactosidase,HXB2,<0.01 µM
C[C@@H]1CN(C(=O)c2ccccc2)CCN1C(=O)C(=O)c1c[nH]c2cc(Cl)ccc12,,HeLa + HELA CD4+/CCR5,EC50,luciferase,,<10 µM
Cc1cc(/C=C/C#N)cc(C)c1Oc1nc(NC2CCN(Cc3cccc(C(N)=O)c3)CC2)nc2ccsc12,NNRTI-resistant (RT K103N),MT-4,EC50,MTT,IIIB,0.00297 µM
Cc1cc2[nH]cnc2cc1NC(=O)COc1ccc(Cl)cc1C(=O)c1cc(F)cc(C(F)(F)F)c1,RT-E138K,HeLa + HELA CD4+,EC50,β-galactosidase,HXB2,<0.01 µM

Repeating the final 5 entries:

{"structure": "Cc1ccc(C(=O)N2CCN(C(=O)C(=O)c3c[nH]c4ccccc34)CC2)cc1", "cells": "MT-2", "read-out": "EC50", "method": "RT activity", "strain": "BRU", "value": "<10 µM"}
{"structure": "Cc1cc(C)cc(C(=O)c2cc(Cl)ccc2OCC(=O)Nc2ccc(S(N)(=O)=O)cc2C)c1", "changes": "RT-V108I", "cells": "HeLa + HELA CD4+", "read-out": "EC50", "method": "β-galactosidase", "strain": "HXB2", "value": "<0.01 µM"}
{"structure": "C[C@@H]1CN(C(=O)c2ccccc2)CCN1C(=O)C(=O)c1c[nH]c2cc(Cl)ccc12", "cells": "HeLa + HELA CD4+/CCR5", "read-out": "EC50", "method": "luciferase", "value": "<10 µM"}
{"structure": "Cc1cc(/C=C/C#N)cc(C)c1Oc1nc(NC2CCN(Cc3cccc(C(N)=O)c3)CC2)nc2ccsc12", "changes": "NNRTI-resistant (RT K103N)", "cells": "MT-4", "read-out": "EC50", "method": "MTT", "strain": "IIIB", "value": "0.00297 µM"}
{"structure": "Cc1cc2[nH]cnc2cc1NC(=O)COc1ccc(Cl)cc1C(=O)c1cc(F)cc(C(F)(F)F)c1", "changes": "RT-E138K", "cells": "HeLa + HELA CD4+", "read-out": "EC50", "method": "β-galactosidase", "strain": "HXB2", "value": "<0.01 µM"}

Blank or dashed fields: not listed here. Two numbers with a dash give a range or band. ECn: concentration that inhibits the pathogen or its effect by n%.